pIC50: −log10 of the molar value.
Legend:
[1] = target: Pneumocystis carinii DHFR (Pneumocystis carinii, UniProt P16184); conditions: tested form: not stated
[2] = target: recombinant human DHFR (Homo sapiens, UniProt P00374); assay: Inhibition of recombinant human DHFR activity by substituted phenyl triazines at 25 µM DHF; type: biochemical; conditions: read-out: Human DHFR IC50, 2.0 nM DHFR, sensitivity limit 5000, tested form: not stated

The chains behind the UniProt entries cited, without tags or fusion partners.
UniProt P16184, whole entry: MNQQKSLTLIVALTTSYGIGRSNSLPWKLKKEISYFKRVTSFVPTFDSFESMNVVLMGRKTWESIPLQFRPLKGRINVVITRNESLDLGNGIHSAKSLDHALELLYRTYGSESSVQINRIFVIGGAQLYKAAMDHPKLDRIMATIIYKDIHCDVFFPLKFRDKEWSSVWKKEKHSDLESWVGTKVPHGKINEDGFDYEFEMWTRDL
UniProt P00374, whole entry: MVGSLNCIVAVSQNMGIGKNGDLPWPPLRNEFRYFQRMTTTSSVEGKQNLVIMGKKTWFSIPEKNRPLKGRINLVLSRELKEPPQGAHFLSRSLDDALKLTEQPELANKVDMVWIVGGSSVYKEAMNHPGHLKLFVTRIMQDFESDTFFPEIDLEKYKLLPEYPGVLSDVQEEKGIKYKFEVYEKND

With CCCCCc1ccc(OCc2cccc(N3C(N)=NC(N)=NC3(C)C)c2)cc1 the Selectivity, Ki (human)/Ki(Pc) ([1]; ratio of human DHFR Ki to P. carinii DHFR Ki) was 2.2, the pIC50 ([1]; read-out: Pneumocystis carinii DHFR IC50, 0.42 nM DHFR, 25μM DHF, sensitivity limit 5000) was 5.92 and the pIC50 [2] was 5.80.

Reference: patent EP0504290B1, “INHIBITORS OF PNEUMOCYSTIS CARINII DIHYDROFOLATE REDUCTASE” (CHIRON CORPORATION, priority 1989, dated 1991)
